Source: paper PMC3499629 (Journal of medicinal chemistry, 2012)

How the values were obtained:
[1] = molecular target: NC' (Human immunodeficiency virus type 1 group M subtype B, UniProt P12493); conditions: read-out: Kd of FSL-2 - NC' interaction; mean ± s.e.m.
[2] = molecular target: NC' (GST-p2-NC) (HIV-1 NL4-3, UniProt P12493 364-432); test: fluorescence polarization

Molecule: 3'-6-carboxyfluorescein-labeled SL-2 DNA [FSL-2]
- Kd [1]: 0.324 ± 0.006 µM

B1: FSL-2 (SL-2 DNA tracer) (structured_DNA)
DNA: GGGGCGACTGGTGAGTACGCCCC
- Kd [2]: 0.324 µM
